Assay results taken from paper PMC6494957 (Frontiers in Microbiology, 2019).

System: all the cell lines tested (HaCaT, HEK 293, MDCK)
Procedure: Cells were maintained in Dulbecco’s modified Eagle’s medium (DMEM) with 10% fetal bovine serum (FBS) and 1% PenStrep (100 U/mL Penicillin and 100 μg/mL Streptomycin) at 37°C with 5% CO2. Cells were serially passaged at ∼80% confluence ∼ every 4 days. Assays were performed in duplicate in 96 well plates seeded with ∼25,000 cells per well. […] Briefly, the antimicrobials were prepared by performing a twofold serial dilution at 100× of tested concentration in DMSO. Subsequently, a 1 μl aliquot of each concentration was transferred to a sterile 96-well plate containing fresh DMEM with either 10% FBS. After mixing four times, the media aliquots with different concentrations of antimicrobial were transferred to each well of the 96-well plate seeded with cells, using wells containing 1–2% DMSO only as control. To determine the effect of FBS on the cytotoxicity of each compound, DMEM with 40% FBS containing different concentrations of antimicrobial was prepared as described above. After 24 h of exposure, WST-1 reagent (Cell Proliferation Assay reagent, Roche) at a concentration of 10% was added to each well. Absorbance at A450 nm on a Multiskan Ascent 354 Spectrophotometer (Labsystems) was measured after 1 h of incubation. The IC50 value was determined for each compound against each cell line via non-linear regression (three parameters) using GraphPad Prism v6 software.

N=C(N/N=C/c1ccc(Cl)cc1)N/N=C/c1ccc(Cl)cc1 [ROB, robenidine]
IC50/MIC ratio (robenidine in the presence of EDTA, Gram-negative pathogens): sixfold | IC50/MIC ratio (robenidine in the presence of EDTA, Gram-positive pathogens): threefold | IC50/MIC ratio (robenidine in the presence of PMBN, Gram-negative pathogens): 2- to 24 fold

Like-named read-outs stand apart in the source and are kept apart here.
